The results in this text go back to PMC8190750 (Cell Research, 2021).

The chains behind the UniProt entries cited, without tags or fusion partners.
UniProt P0DTC4, whole entry, looked up: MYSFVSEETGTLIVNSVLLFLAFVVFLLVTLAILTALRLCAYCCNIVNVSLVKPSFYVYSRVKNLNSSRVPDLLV

Broadly, the IC50 is the concentration needed to halve the response being measured.

Series [1] deals with 2-E channels (Severe acute respiratory syndrome coronavirus 2, UniProt P0DTC4). It counts as biochemical, SARS-CoV-2. To be noted: read-out: IC50 Channel inhibition.
Series [2] deals with Vero E6 cells.

On to Berbamine [BE-12], for which the IC50 in series [1] came out at 111 µM; in series [2] (African green monkey) it was 29.9 µM. Further, the “cytotoxicity (in words)” value in series [2] is given as “minor cytotoxicity”.
